Tests used:
mouse α1β1δε nAChR = mouse α1β1δε nAChR (Mus musculus, UniProt P02716+P04756+P20782)
rat α9α10 nAChR = rat α9α10 nAChR (Rattus norvegicus, UniProt P43144+Q9JLB5)
adult muscle nAChRs = conditions: toxin preferentially bound to the α/γ interface; ref [46]; cited from earlier work

The chains behind the UniProt entries cited, without tags or fusion partners. Where a name states a change or a piece, a line headed by the entry shows the natural chain unless it says otherwise. Residues count along the entry.
UniProt P02716: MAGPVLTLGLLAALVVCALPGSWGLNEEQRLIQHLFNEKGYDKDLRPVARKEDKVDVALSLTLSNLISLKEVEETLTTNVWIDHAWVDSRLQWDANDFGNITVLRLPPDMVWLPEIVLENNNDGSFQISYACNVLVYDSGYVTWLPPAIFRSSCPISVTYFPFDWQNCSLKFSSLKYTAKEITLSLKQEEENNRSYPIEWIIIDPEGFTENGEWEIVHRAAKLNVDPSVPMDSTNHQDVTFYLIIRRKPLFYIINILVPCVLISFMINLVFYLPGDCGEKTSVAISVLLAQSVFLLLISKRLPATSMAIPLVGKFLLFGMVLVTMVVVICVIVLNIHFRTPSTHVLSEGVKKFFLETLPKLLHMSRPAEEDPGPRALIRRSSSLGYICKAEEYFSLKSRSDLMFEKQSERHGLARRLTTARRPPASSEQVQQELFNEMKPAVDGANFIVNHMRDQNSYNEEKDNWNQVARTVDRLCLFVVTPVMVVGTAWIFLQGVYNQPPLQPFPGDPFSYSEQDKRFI
UniProt P04756: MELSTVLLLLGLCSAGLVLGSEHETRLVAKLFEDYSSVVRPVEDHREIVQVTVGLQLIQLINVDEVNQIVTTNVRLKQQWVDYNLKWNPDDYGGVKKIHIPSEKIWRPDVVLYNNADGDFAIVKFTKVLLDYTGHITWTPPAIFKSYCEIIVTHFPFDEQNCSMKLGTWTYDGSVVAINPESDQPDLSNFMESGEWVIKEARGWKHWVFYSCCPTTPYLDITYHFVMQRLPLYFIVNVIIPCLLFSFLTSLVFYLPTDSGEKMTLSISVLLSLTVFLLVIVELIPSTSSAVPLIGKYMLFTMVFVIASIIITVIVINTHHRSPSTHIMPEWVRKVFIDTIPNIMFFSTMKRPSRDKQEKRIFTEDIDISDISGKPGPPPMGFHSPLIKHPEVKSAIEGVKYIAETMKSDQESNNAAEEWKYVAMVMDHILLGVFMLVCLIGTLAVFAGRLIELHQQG
UniProt P20782: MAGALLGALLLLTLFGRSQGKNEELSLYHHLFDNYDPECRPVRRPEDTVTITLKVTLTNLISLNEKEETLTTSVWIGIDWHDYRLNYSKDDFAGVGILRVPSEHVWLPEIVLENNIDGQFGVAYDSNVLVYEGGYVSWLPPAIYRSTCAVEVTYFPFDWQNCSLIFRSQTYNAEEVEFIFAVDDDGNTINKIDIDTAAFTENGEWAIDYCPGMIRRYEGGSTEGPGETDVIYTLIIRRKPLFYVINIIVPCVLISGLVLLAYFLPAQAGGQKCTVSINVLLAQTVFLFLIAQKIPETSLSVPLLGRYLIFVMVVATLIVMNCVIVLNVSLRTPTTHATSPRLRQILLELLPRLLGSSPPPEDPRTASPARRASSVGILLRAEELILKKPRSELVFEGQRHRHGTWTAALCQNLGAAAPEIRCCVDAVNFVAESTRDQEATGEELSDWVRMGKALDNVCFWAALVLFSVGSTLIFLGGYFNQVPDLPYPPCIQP
UniProt P43144, 26-479 limits assumed: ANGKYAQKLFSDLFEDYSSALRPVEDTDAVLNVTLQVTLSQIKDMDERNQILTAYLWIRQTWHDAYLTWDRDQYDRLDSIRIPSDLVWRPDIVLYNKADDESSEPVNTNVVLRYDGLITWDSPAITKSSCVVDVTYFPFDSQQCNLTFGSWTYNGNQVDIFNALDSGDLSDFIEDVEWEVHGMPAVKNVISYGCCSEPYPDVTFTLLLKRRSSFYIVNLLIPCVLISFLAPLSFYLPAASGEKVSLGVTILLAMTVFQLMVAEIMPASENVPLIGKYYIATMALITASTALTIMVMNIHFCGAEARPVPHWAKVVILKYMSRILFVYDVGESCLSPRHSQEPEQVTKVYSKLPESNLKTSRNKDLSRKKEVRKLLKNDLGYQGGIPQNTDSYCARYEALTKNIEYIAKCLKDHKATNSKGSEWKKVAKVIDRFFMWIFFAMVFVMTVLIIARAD
UniProt Q9JLB5, 25-447 limits assumed: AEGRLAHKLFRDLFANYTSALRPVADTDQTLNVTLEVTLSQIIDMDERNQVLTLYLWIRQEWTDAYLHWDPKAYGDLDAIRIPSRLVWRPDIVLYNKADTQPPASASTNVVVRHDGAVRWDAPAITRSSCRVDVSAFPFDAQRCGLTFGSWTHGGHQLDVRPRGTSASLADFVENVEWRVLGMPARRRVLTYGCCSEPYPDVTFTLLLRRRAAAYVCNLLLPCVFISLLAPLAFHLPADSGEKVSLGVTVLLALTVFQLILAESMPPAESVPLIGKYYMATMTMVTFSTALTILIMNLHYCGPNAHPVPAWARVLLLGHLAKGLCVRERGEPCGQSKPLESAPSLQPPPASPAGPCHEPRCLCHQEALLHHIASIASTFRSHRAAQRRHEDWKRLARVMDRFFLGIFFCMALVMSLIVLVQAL

Compound | IC50 (mouse α1β1δε nAChR) [µM] | IC50 (rat α9α10 nAChR) [µM] | lower affinity for adult muscle nAChRs (adult muscle nAChRs) [fold]
C[C@@H]1NC(=O)[C@@H]2CCCN2C(=O)[C@H](CC(N)=O)NC(=O)[C@@H]2CSSC[C@@H](C(N)=O)NC(=O)[C@H](CO)NC(=O)[C@H](Cc3ccc(O)cc3)NC(=O)[C@H](Cc3c[nH]cn3)NC(=O)[C@H](CCCNC(=N)N)NC(=O)CNC(=O)[C@H](CSSC[C@H](NC(=O)[C@@H](N)CCC(=O)O)C(=O)N2)NC1=O | 0.00586 | 9.35 | –
αA-conotoxin OIVB | – | – | 1800
